Reference: ChEMBL document CHEMBL3352189 (J Med Chem, 2014)

Tested on: Venezuelan equine encephalitis virus
Assay: Antiviral activity against Venezuelan equine encephalitis virus TC83 infected in Vero 76 cells assessed as reduction in viral titer at 1 uM by crystal violet staining based microplaque assay relative to untreated control
Type: functional
Conditions: strain TC83, Vero 76

`CN1CCN(C)/C(=N/c2ccc([N+](=O)[O-])cc2C(=O)Nc2ccccc2)C1` showed a fold change (FC) of 1.6e+07.
